Assay results taken from patent US20090041797A1 (ANGELICA THERAPEUTICS, published 2009).

B1: null construct DT382(G53E) (enzyme)
chain: not shown
B2: wild type DT382 (truncated diphtheria toxin, […] of DT387) (enzyme)
chain: not shown

Molecular target: elongation factor-2 (EF-2) (rabbit (reticulocyte lysate))
Assay: cell-based or functional assay

Binder | IC50 (IVTT, inhibition of protein synthesis)
B1 | 46.6 ng/12.5 µl
B2 | 20.3 ng/12.5 µl
